In US12490739B2, “Synergistically effective fungicide composition comprising choline phosphonate and at least one additional fungicide” (BELCHIM CROP PROTECTION NV, priority 2019, dated 2025):

Tested on: Phytophthora infestans
Assay: Example 11 potted potato plants (Solanum tuberosum L. var. Bintje) infected with late blight, Belgium
Settings: PESINC; 14 DA-A2; 1125 g a.c./ha

Substance: cuprous oxide
- CUP f.e. (%): 46.8%
